Test results from ChEMBL document CHEMBL3227956 (J Med Chem, 1979).

Tests used:
[1] = test system: Mus musculus; assay: Toxicity in mouse allografted with mouse L1210 cells assessed as survival rate at 500 mg/kg, ip administered on day 1 measured on day 30 relative to control; conditions: in vivo
[2] = test system: L1210; assay: Antitumor activity against mouse L1210 cells allografted in mouse assessed as increase in survival rate at 500 mg/kg, ip administered on day 1 measured on day 30 relative to control; conditions: route intraperitoneal
[3] = test system: L1210; assay: Antitumor activity against mouse L1210 cells allografted in mouse assessed as increase in survival rate at 62.5 mg/kg, ip administered on day 1 measured on day 30 relative to control; conditions: route intraperitoneal
[4] = test system: W256; assay: Cytotoxicity against rat Walker 256 cells assessed as growth inhibition at 80 to 320 ug/mL in absence of microsomal activation relative to control
[5] = test system: Mus musculus; assay: Toxicity in mouse allografted with mouse L1210 cells assessed as survival rate at 62.5 mg/kg, ip administered on day 1 measured on day 30 relative to control; conditions: in vivo
[6] = test system: Mus musculus; assay: Toxicity in mouse allografted with mouse L1210 cells assessed as survival rate at >= 125 mg/kg, ip administered on day 1 measured on day 30 relative to control; conditions: in vivo

Row | SMILES | Activity [1] | T/C [2] [%] | T/C [3] [%] | growth inhibition (GI) [4] [%] | Activity [5] | Survival [6] [%] | Survival [1] [%]
1 | [O-][P@@+]1(N(CCCl)CCCl)NC[C@@H](Br)CO1 | Non-toxic | 146 |  |  |  |  | 
2 | O=[P@@]1(N(CCCl)CCCl)OC[C@@H]2C[N@@]21 |  |  | 120 | 100 | Non-toxic | 0 | 
3 | O=[P@]1(N(CCCl)CCCl)OC[C@@H]2C[N@@]21 |  | 106 |  |  |  |  | 100
